Pooled drug test results. Numbers come from NIAID ChemDB, via PubChem.

Conditions beyond the fields shown may differ between rows.

Cc1cn([C@H]2C[C@H](F)[C@@H](COP(=O)(O)CF)O2)c(=O)[nH]c1=O ; kind: culture ; organism: HIV-1 ; cells: H9 ; read by: p24 ; endpoint: EC50 ; value: 55 µM
CSP1(SC)=NP(Cl)(Cl)=NP(Cl)(Cl)=N1 ; kind: culture ; organism: Mycobacterium tuberculosis ; strain or isolate: H37Rv ; read by: BACTEC ; endpoint: inhibition ; dose: 128 µg/mL ; value: 94%
Cc1cn([C@H]2C=C[C@@H](COP(=O)(O)F)O2)c(=O)[nH]c1=O ; kind: culture ; organism: HIV-1 ; cells: PBMC ; read by: p24 ; endpoint: EC50 ; value: 0.05 µM
O=C1OP(=O)(Cl)Oc2ccccc21 ; kind: culture ; organism: Mycobacterium tuberculosis ; strain or isolate: H37Rv ; read by: resazurin ; endpoint: inhibition ; dose: 6.25 µg/mL ; value: -5%
N#Cc1c(SCCBr)nsc1-c1ccccc1 ; kind: toxicity ; cells: VERO ; endpoint: CC50 ; value: 25 µg/mL
O=c1ccn([C@H]2CC[C@@H](CO)O2)c(=O)[nH]1 ; kind: culture ; organism: HIV-1 ; cells: PBMC ; read by: p24 ; endpoint: EC50 ; value: 100 µM
C(/C=C/c1ccccc1)=NCCNCCN=C/C=C/c1ccccc1.[N-]=[N+]=[N][Hg][N]=[N+]=[N-] ; kind: culture ; organism: Aspergillus niger ; read by: agar diffusion ; endpoint: zone ; dose: 20000 µg/mL ; value: 36 mm
Cc1cn([C@H]2C[C@H](F)[C@@H](CO)O2)c(=O)[nH]c1=O ; kind: toxicity ; cells: MT-4 ; endpoint: CC50 ; value: 190 µM
Cc1cn([C@H]2C[C@H](N=[N+]=[N-])[C@@H](COP(=O)(F)OCCSC(=O)C(C)(C)C)O2)c(=O)[nH]c1=O ; kind: culture ; organism: HIV-1 ; strain or isolate: IIIB ; cells: MT-4 ; endpoint: EC50 ; value: 0.008 µM
O=[N+]([O-])c1cc(Cn2nnc(-c3cc([N+](=O)[O-])cc([N+](=O)[O-])c3)n2)cc([N+](=O)[O-])c1 ; kind: culture ; organism: Mycobacterium kansasii ; strain or isolate: My 235/80 ; conditions: 14 d ; endpoint: MIC ; value: 2 µM
CCCCN(CCCl)C[C@@H]1CS[C@H](C)O1.O=C(O)C(=O)O ; kind: culture ; organism: Mycobacterium tuberculosis ; strain or isolate: H37Rv ; read by: BACTEC ; endpoint: MIC bound ; value: >12.5 µg/mL
Nc1ncnc2c1ncn2[C@H]1CC[C@@H](CO)O1 ; kind: culture ; organism: HIV-1 ; cells: MT-4 ; read by: p24 / ELISA ; endpoint: EC50 ; value: 5.04 µM
CN1C(=O)N(C)P(=O)(c2ccccc2)P1c1ccccc1 ; kind: culture ; organism: Mycobacterium tuberculosis ; strain or isolate: H37Rv ; read by: BACTEC ; endpoint: inhibition ; dose: 12.5 µg/mL ; value: 0%
Cc1cn([C@H]2C[C@H](F)[C@@H](COP(=O)(O)C(F)Cl)O2)c(=O)[nH]c1=O ; kind: toxicity ; cells: H9 ; read by: trypan blue ; endpoint: CC50 ; value: >100 µM
ClP1(Cl)=NP(Cl)(Cl)=NP(Cl)(Cl)=N1 ; kind: culture ; organism: Mycobacterium tuberculosis ; strain or isolate: H37Rv ; read by: BACTEC ; endpoint: inhibition ; dose: 128 µg/mL ; value: 68%
Cc1c([N+](=O)[O-])c(C)c(S(=O)(=O)c2c(C)c([N+](=O)[O-])c(C)c([N+](=O)[O-])c2C)c(C)c1[N+](=O)[O-] ; kind: culture ; organism: HIV-1 ; strain or isolate: RF ; cells: CEM + CEM-SS ; read by: XTT ; endpoint: EC50 ; value: >100 µg/mL

A second listing of 2 rows from above:

structure	kind	organism	strain or isolate	cells	read by	conditions	endpoint	dose	value
O=c1ccn([C@H]2CC[C@@H](CO)O2)c(=O)[nH]1	culture	HIV-1	-	PBMC	p24	-	EC50	-	100 µM
C(/C=C/c1ccccc1)=NCCNCCN=C/C=C/c1ccccc1.[N-]=[N+]=[N][Hg][N]=[N+]=[N-]	culture	Aspergillus niger	-	-	agar diffusion	-	zone	20000 µg/mL	36 mm

Inhibition is in % at the dose shown (toxicity tests: loss of growth or viability). MIC bound: limit read from a one-dose screen. Zones are inhibition diameters on agar. ECn is the concentration giving n% inhibition of infection, replication or growth. Blank or dashed fields: not listed here. CCn is the concentration with n% toxicity to the cells.